Target: T1, human Kv1.1 (human), Q09470
T1 chain: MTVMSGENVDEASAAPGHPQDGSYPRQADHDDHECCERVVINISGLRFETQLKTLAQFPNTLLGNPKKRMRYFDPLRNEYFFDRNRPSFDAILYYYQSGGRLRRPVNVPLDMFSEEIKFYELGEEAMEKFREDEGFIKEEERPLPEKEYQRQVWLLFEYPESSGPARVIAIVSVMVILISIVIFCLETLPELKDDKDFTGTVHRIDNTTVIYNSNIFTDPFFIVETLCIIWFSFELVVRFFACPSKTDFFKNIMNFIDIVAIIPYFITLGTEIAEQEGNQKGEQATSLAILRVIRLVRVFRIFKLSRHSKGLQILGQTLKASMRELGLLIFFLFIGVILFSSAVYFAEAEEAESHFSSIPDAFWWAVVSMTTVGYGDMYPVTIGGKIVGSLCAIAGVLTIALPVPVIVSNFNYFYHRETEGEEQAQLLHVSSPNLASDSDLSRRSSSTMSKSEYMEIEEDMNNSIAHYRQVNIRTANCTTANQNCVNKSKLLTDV
Assay: cell-based or functional assay
With RSCIDTIPKSRCTAFKCKHSQKYRLSFCRKTCGTC (modifications not checked) [20kDaPEG-[Lys16,Gln21]ShK-amide] the Kv1.1 (IWQ) IC50 was 537 nM. GVIINVKCKISRQCLEPCKKAGMRFGKCMNGKCACTPK (modifications not checked) [[Ala34]Osk-1] was tested, and the Kv1.1 (IWQ) IC50 was 1.07 nM. In the case of RSCIDTIPKSRCTAFKCKHSQKYRLSFCRKTCGTCA (modifications not checked) [[Lys16,Gln21]ShK-Ala], the Kv1.1 (IWQ) IC50 is reported as 4.01 nM.

What follows are binders tested against hKvLQT1/hminK (IKs) (human), P51787 (assay: cell-based or functional assay).
For RSCIDTIPKSRCTAFKCKHSMKYRLSFCRKTCGTC (modifications not checked) [20 kDa PEG-[Lys16]ShK], the KvLQT1/minK (IKs) IC50 was over 30000 nM.

Each binder was assayed against human Kv1.3 (human), P22001 (assay: cell-based or functional assay).
RSCIDTIPKSRCTAFKCKHSMKYRLSYCKKTCGTC (modifications not checked) [[Lys16,29; Tyr27]ShK-amide] showed a Kv1.3 (IWQ) IC50 of 0.042 nM. RSCIDTIPKSRCTAFKCKHSVKYRLSFCRKTCGTC (modifications not checked) [[Lys16, Val21]ShK-amide] was tested, and the WB (IL-2) IC50 was 4.8 nM. In the case of RSCIDTIPKSRCTAFKCKHSSKYRLSFCRKTCGTC (modifications not checked) [[Lys16, Ser21]ShK-amide], the Kv1.3 (IWQ) IC50 is reported as 0.068 nM. RSCIDTIPKSRCTAFKCEHSMKYRLSFCRKTCGTC (modifications not checked) [[Lys16, Glu18]ShK-amide] showed a Kv1.3 (IWQ) IC50 of 0.065 nM. RSCEDTIPKSRCTAFKCKHSQKYRLSFCRKTCGTC (modifications not checked) [[Glu4, Lys16, Gln21]ShK-amide] showed a WB (IL-2) IC50 of 0.23 nM. Work on RSCEDTIPKSRCTAFKCRHSMKYRLSFCKRTCGTC (modifications not checked) [[Glu4; Lys16, 29; Arg18, 30]ShK-amide] yielded a WB (IL-2) IC50 of 0.203 nM. For RSCIDTIPKSRCTAFKCKHSMKYRLYFCKKTCGTC (modifications not checked) [[Lys16,29; Tyr26]ShK-amide], the Kv1.3 (IWQ) IC50 was 0.084 nM and the WB (IL-2) IC50 was 1.04 nM. RSCIDTIPKSRCTAAKCKHSMKYRLSFCRKTCGTC (modifications not checked) [[Ala15,Lys16]ShK-amide] showed a Kv1.3 (IWQ) IC50 of 0.091 nM. RSCIDTIPKSRCTAFKCKHSFKYRLSFCRKTCGTC (modifications not checked) [[Lys16, Phe21]ShK-amide] gave a WB (IFNg) IC50 of 2.04 nM. For RSCEDTIPKSRCTAFKCKHSSKYRLSFCRKTCGTC (modifications not checked) [[Glu4, Lys16, Ser21]ShK-amide], the Kv1.3 (IWQ) IC50 was 0.098 nM and the WB (IL-2) IC50 was 0.86 nM. With RSCIDTIPKSRCTAFKCKHSQKYRLSFCRKTCGTC (modifications not checked) [[Lys16, Gln21]ShK-amide] the WB (IL-2) IC50 was 0.42 nM. RSCIDTIPKSRCTAFKCKHSQKYRLSFCRKTCGTC (modifications not checked) [20kDaPEG-[Lys16,Gln21]ShK-amide] gave a WB (IFNg) IC50 of 0.942 nM. For RSCIDTIPKSRCTAFKCKHSHKYRLSFCRKTCGTC (modifications not checked) [[Lys16, His21]ShK-amide], the WB (IL-2) IC50 was 5.5 nM. In the case of RSCIDTIPKSRCTAFKCKHSMKYRLSWCKKTCGTC (modifications not checked) [[Lys16,29; Trp27]ShK-amide], the WB (IFNg) IC50 is reported as 0.606 nM. RSCIDTIPKSRCTAFKCKHSAKYRLSFCRKTCGTC (modifications not checked) [20kDaPEG-[Lys16,Ala21]ShK] gave a Kv1.3 (IWQ) IC50 of 4.57 nM, a WB (IFNg) IC50 of 7.92 nM and a WB (IL-2) IC50 of 4.8 nM. GVIINVKCKISRQCLEPCKKAGMRFGKCMNGKCACTPK (modifications not checked) [[Ala34]Osk-1] showed a Kv1.3 (IWQ) IC50 of 0.1 nM, a WB (IFNg) IC50 of 0.074 nM and a WB (IL-2) IC50 of 0.052 nM. In the case of RSCEDTIPKSRCTAFKCKHSQKYRLSFCRKTCGTCA (modifications not checked) [20kDaPEG-[Glu4,Lys16,Gln21]ShK-Ala], the Kv1.3 (IWQ) IC50 is reported as 7.78 nM, the WB (IFNg) IC50 is reported as 14 nM and the WB (IL-2) IC50 is reported as 2.78 nM. RSCEDTIPKERCTAFKCRHSMKYRLSFCKRTCGTC (modifications not checked) [[Glu4,10; Lys16,29; Arg18,30]ShK-amide] was tested, and the Kv1.3 (IWQ) IC50 was 0.064 nM. Work on RSCEDTIPEERCTAFKCRHSMKYRLSFCKRTCGTC (modifications not checked) [[Glu4,9,10; Lys16,29; Arg18, 30]ShK-amide] yielded a Kv1.3 (IWQ) IC50 of 0.059 nM and a WB (IL-2) IC50 of 0.204 nM.
